# Test results: article PMC8953592, “Mechanism of Action and Therapeutic Potential of the β-Hairpin Antimicrobial Peptide Capitellacin from the Marine Polychaeta Capitella teleta” (Marine Drugs, 2022)
# Legend:
# Assay in all cases: MIC, two-fold serial dilutions
# Details in all cases: MH medium with 0.9% NaCl, 0.1% BSA, 5 × 10^5 CFU/mL, 37 °C, 24 h
# A. baumanii CI 2675 = system: A. baumanii CI 2675
# E. cloacae CI 4172 = system: E. cloacae CI 4172
# E. coli ATTC 25922 = system: E. coli ATTC 25922
# E. coli CI 214 = system: E. coli CI 214
# E. coli CI 3600 = system: E. coli CI 3600
# E. coli ML-35p = system: E. coli ML-35p
# K. pneumonia ATCC 700603 = system: K. pneumonia ATCC 700603
# P. aeruginosa PAO1 = system: P. aeruginosa PAO1
# [1] = system: Staphylococcus aureus 209P
# E. coli BW25113 = system: E. coli BW25113
# E. coli MDR CI 1057 = system: E. coli MDR CI 1057
SMILES,Minimum Inhibitory Concentration (A. baumanii CI 2675) [µM],Minimum Inhibitory Concentration (E. cloacae CI 4172) [µM],Minimum Inhibitory Concentration (E. coli ATTC 25922) [µM],Minimum Inhibitory Concentration (E. coli CI 214) [µM],Minimum Inhibitory Concentration (E. coli CI 3600) [µM],Minimum Inhibitory Concentration (E. coli ML-35p) [µM],Minimum Inhibitory Concentration (K. pneumonia ATCC 700603) [µM],Minimum Inhibitory Concentration (P. aeruginosa PAO1) [µM],Minimum Inhibitory Concentration [1] [µM],Minimum Inhibitory Concentration (E. coli BW25113) [µM],Minimum Inhibitory Concentration (E. coli MDR CI 1057) [µM]
CC[C@H](C)[C@@H]1NC(=O)[C@@H](NC(=O)[C@@H](NC(=O)[C@H](CCCNC(=N)N)NC(=O)[C@@H]2CCCN2C(=O)[C@H](CO)NC(=O)[C@@H](N)CCCNC(=N)N)C(C)C)CSSC[C@@H](C(=O)N[C@@H](Cc2c[nH]c3ccccc23)C(=O)NCC(=O)O)NC(=O)[C@H](CCCNC(=N)N)NC(=O)[C@H](CCCNC(=N)N)NC(=O)[C@H](Cc2ccc(O)cc2)NC(=O)[C@@H]2CSSC[C@H](NC(=O)[C@H](C(C)C)NC(=O)[C@H](CCCNC(=N)N)NC1=O)C(=O)N[C@@H](CCCNC(=N)N)C(=O)N[C@@H](CC(N)=O)C(=O)NCC(=O)N[C@@H](C(C)C)C(=O)N2 [CT2],0.125,2,0.25,0.25,0.25,0.25,2,1,4,,
CC[C@H](C)[C@@H]1NC(=O)[C@@H](NC(=O)[C@@H](NC(=O)[C@H](CCCNC(=N)N)NC(=O)[C@@H]2CCCN2C(=O)[C@@H](N)CO)C(C)C)CSSC[C@@H](C(=O)N[C@@H](Cc2c[nH]c3ccccc23)C(=O)O)NC(=O)[C@H](CCCNC(=N)N)NC(=O)[C@H](CCCNC(=N)N)NC(=O)[C@H](Cc2ccc(O)cc2)NC(=O)[C@@H]2CSSC[C@H](NC(=O)[C@H](C(C)C)NC(=O)[C@H](CCCNC(=N)N)NC1=O)C(=O)N[C@@H](CCCNC(=N)N)C(=O)N[C@@H](CC(N)=O)C(=O)NCC(=O)N[C@@H](C(C)C)C(=O)N2 [CT3],0.25,8,0.5,1,0.5,0.5,4,2,8,,
CC[C@H](C)[C@@H]1NC(=O)[C@@H](NC(=O)[C@@H](NC(=O)[C@@H](N)CCCNC(=N)N)C(C)C)CSSC[C@@H](C(=O)N[C@@H](Cc2c[nH]c3ccccc23)C(=O)O)NC(=O)[C@H](CCCNC(=N)N)NC(=O)[C@H](CCCNC(=N)N)NC(=O)[C@H](Cc2ccc(O)cc2)NC(=O)[C@@H]2CSSC[C@H](NC(=O)[C@H](C(C)C)NC(=O)[C@H](CCCNC(=N)N)NC1=O)C(=O)N[C@@H](CCCNC(=N)N)C(=O)N[C@@H](CC(N)=O)C(=O)NCC(=O)N[C@@H](C(C)C)C(=O)N2 [CT4],0.125,4,0.5,0.5,0.25,0.25,2,1,4,,
CC(C)[C@@H]1NC(=O)CNC(=O)[C@H](CC(N)=O)NC(=O)[C@H](CCCNC(=N)N)NC(=O)[C@@H]2CSSC[C@H](NC1=O)C(=O)N[C@@H](Cc1ccc(O)cc1)C(=O)N[C@@H](CCCNC(=N)N)C(=O)N[C@@H](CCCNC(=N)N)C(=O)N[C@H](C(=O)N[C@@H](Cc1c[nH]c3ccccc13)C(=O)O)CSSC[C@H](NC(=O)[C@@H](NC(=O)[C@@H](N)CCCNC(=N)N)C(C)C)C(=O)N[C@@H](Cc1ccccc1)C(=O)N[C@@H](CCCNC(=N)N)C(=O)N[C@@H](C(C)C)C(=O)N2 [CT6],0.25,2,0.25,0.25,0.25,0.25,2,2,4,,
"CC[C@H](C)[C@@H]1NC(=O)[C@@H](NC(=O)[C@@H](NC(=O)[C@H](CCCNC(=N)N)NC(=O)[C@@H]2CCCN2C(=O)[C@@H](N)CO)C(C)C)CSSC[C@@H](C(=O)N[C@@H](Cc2c[nH]c3ccccc23)C(=O)NCC(=O)O)NC(=O)[C@H](CCCNC(=N)N)NC(=O)[C@H](CCCNC(=N)N)NC(=O)[C@H](Cc2ccc(O)cc2)NC(=O)[C@@H]2CSSC[C@H](NC(=O)[C@H](C(C)C)NC(=O)[C@H](CCCNC(=N)N)NC1=O)C(=O)N[C@@H](CCCNC(=N)N)C(=O)N[C@@H](CC(N)=O)C(=O)NCC(=O)N[C@@H](C(C)C)C(=O)N2 [Cap, capitellacin]",0.25,4,0.5,1,0.5,0.5,4,2,8,0.5,0.5
